A mixed list of measured activities; the numbers were collected in NIAID ChemDB.

Common to all: whole-cell or culture tests; agent: HIV-1; read-out: EC50

ECn is the concentration giving n% inhibition of infection, replication or growth. Rows are shuffled and stem from different studies. An empty or dashed field is not shown.

| structure | cells | mutations | strain or isolate | value |
|---|---|---|---|---|
| COCc1nc(Nc2ccc(C#N)cc2)nc(Nc2c(C)cc(/C=C/C#N)cc2C)c1C(=O)N(C)CCN(C)C | MT4 CMV-EGFP | - | IIIB | 0.0324 µM |
| Nc1ncnc2c1ncn2[C@@H]1O[C@@H](CO)CC1(F)F | PBMC | - | LAV | >100 µM |
| Nc1ncnc2c1ncn2[C@H]1C[C@@H](OCCP(=O)(O)O)CO1 | MT-4 | - | - | >250 µM |
| CCCCCCCCCCc1nccn(C(CO)OC(CO)CO)c1=O | MT-4 | - | IIIB | >100 µM |
| OC[C@]1(F)CC[C@H](n2cnc3c(=S)nc[nH]c32)C1 | PBMC | - | - | >100 µM |
| CCN1CCCCCOc2cc(F)c(Cl)cc2CN2N=C(C1=O)C1C(C2=O)C(O)=C2C(=O)N(CC)C[C@H](C)N21 | MT-4 | - | LAII(IIIB) | 23.08 µM |
| O=C(Nc1ccc(S(=O)(=O)Nc2ccccc2Br)cc1)c1cc(O)c(O)c(O)c1 | MT-4 | - | - | >25 µM |
| O=C1CC(C#CC2CC2)(C(F)(F)F)c2cc(Cl)ccc2N1 | MT-2 | - | RF | <0.014 µM |
| O=C(/C=C/c1ccc(O)c(O)c1)Nc1ccc(S(=O)(=O)Nc2cccc(Cl)c2F)cc1 | MT-4 | - | - | 19 µM |
| C=C1CN(S(=O)(=O)c2ccc(C)cc2)CCCN(Cc2ccccc2)CCCN(S(=O)(=O)c2ccc(C)cc2)C1 | MT-4 | - | IIIB | 2 µM |
| Cc1cn([C@H]2C[C@H](F)[C@@H](CN)O2)c(=O)[nH]c1=O | MT-4 | - | - | >500 µM |
| COC(=O)C(C)NP(=O)(OC[C@H]1O[C@@H](n2cc(F)c(=O)[nH]c2=O)C[C@@H]1O)Oc1ccccc1 | CEM + CEM TK- | - | - | >100 µM |
| Cc1cn(C[C@H]2C[C@H]2CO)c(=O)[nH]c1=O | PBMC | - | LAV | >100 µM |
| Cc1cc(C)cc(NS(=O)(=O)c2ccc(NC(=O)/C=C/c3ccc(O)c(O)c3)cc2)c1 | MT-4 | - | - | >12 µM |
| O=C1Nc2ccc(Cl)cc2[C@@](C#CC2CC2)(C(F)(F)F)[C@H]1OCc1ccncc1 | - | RT-K103N | - | <0.05 µM |
| COc1cccc2c1nc(-c1ccccc1F)n2Cc1ccc(F)cc1 | MT-4 | - | IIIB | 0.47 µg/mL |
| COC(=O)C(C)NP(=O)(OC[C@H]1S[C@H](n2cc(F)c(=O)[nH]c2=O)CC1O)Oc1ccccc1 | CEM | - | - | >100 µM |
| Nc1ccn(C/C=C\COCP(=O)(O)O)c(=O)n1 | MT-4 | - | - | >100 µM |
| CC(=O)N[C@@H](Cc1cccc2ccccc12)C(=O)N[C@H](C(=O)N[C@@H](CC(C)C)[C@@H](O)CC(=O)N[C@@H](CC(C)C)C(=O)N[C@@H](Cc1ccccc1)C(N)=O)C(C)C | MT-2 | - | - | 4.12 µM |
| O=C(Nc1ccc(S(=O)(=O)Nc2cccc(Cl)c2F)cc1)c1cc(O)c(O)c(O)c1 | MT-4 | - | - | >25 µM |
| CC(C)N1C[C@H](C)N2C(=C(O)C3C(=O)N4Cc5ccc(F)cc5OCCCCCN(C)C(=O)C(=N4)C32)C1=O | MT-4 | - | LAII(IIIB) | 3.67 µM |
| C[C@]1(CO)O[C@@H](n2ccc(=O)[nH]c2=O)[C@H](O)[C@@H]1O | MT-4 | - | IIIB | >100 µM |
| CCN1C[C@H](C)N2C(=C(O)C3C(=O)N4Cc5ccc(F)cc5OCCCCCCN(C)C(=N4)C32)C1=O | MT-4 | - | LAII(IIIB) | 82.56 µM |
| COCc1nc(Nc2ccc(C#N)cc2)nc(Oc2c(C)cc(/C=C/C#N)cc2C)c1C(=O)NCc1ccncc1 | MT4 CMV-EGFP | - | IIIB | 0.00398 µM |
| O=c1[nH]cnc2c1ncn2C[C@H]1C[C@H]1[C@H](O)CO | PBMC | - | LAV | >100 µM |
| COCc1nc(Nc2ccc(C#N)cc2)nc(Nc2c(C)cc(/C=C/C#N)cc2C)c1C(=O)NCCc1ccccn1 | MT4 CMV-EGFP | - | IIIB | 0.00282 µM |
| CC1=CN([C@H]2C[C@H](N=[N+]=[N-])[C@@H](CO)O2)Cn2nnnc21 | MT-4 | - | - | 8.5 µM |
| COCc1nc(Nc2ccc(C#N)cc2)nc(Nc2c(C)cc(/C=C/C#N)cc2C)c1C(=O)NCc1cccnc1 | MT4 CMV-EGFP | - | K103N+Y101C | 0.0148 µM |
| Nc1cccc2cc3ccccc3nc12 | CEM | - | - | >50 µM |
| C/C(=N\OCCOCn1cnc2c(=O)[nH]c(N)nc21)c1ccccc1 | C8166 | - | IIIB | >50 µM |
| Cc1cn([C@@H]2OC[C@H](OCCP(=O)(O)O)[C@H]2O)c(=O)[nH]c1=O | MT-4 | - | - | >250 µM |
| Nc1ccn([C@@H]2C[C@H](F)[C@H](CO)O2)c(=O)n1 | MT-4 | - | IIIB | >100 µM |
| O=C(/C=C/c1ccc(O)c(O)c1)Nc1ccc(S(=O)(=O)Nc2ccc(F)c(Cl)c2)cc1 | MT-4 | - | - | >14 µM |
| C[C@H](Cn1cnc2c(N)ncnc21)OCP(=O)(O)O | TZM-bl | HX/348 | - | 4.1 µM |
| O=C1Nc2ccc(Cl)cc2[C@@](C#CC2CC2)(C(F)(F)F)[C@H]1OCc1cccc(F)c1 | MT-2 | - | RF | <0.201 µM |
| O=c1[nH]c(=O)n([C@H]2CC[C@@](F)(CO)C2)cc1F | PBMC | - | - | >100 µM |
| Cc1cn(C/C=C\COCP(=O)(O)O)c(=O)[nH]c1=O | PBL | - | - | >100 µM |
| Nc1nc2c(ncn2COCCON=C2CCCC2)c(=O)[nH]1 | C8166 | - | IIIB | >50 µM |
| COc1cccc2c1nc(-c1ccccc1F)n2CCC=C(C)C | MT-4 | - | IIIB | 0.03 µg/mL |
| CCN1C[C@H](C)N2C(=C(O)C3C(=O)N4Cc5ccc(F)cc5OCCCCCNC(=O)C(=N4)C32)C1=O | MT-4 | - | LAII(IIIB) | 2.61 µM |
| CCCCCCCCCCc1nccn(COCCO)c1=O | CEM + CEM-SS | - | LAI | >100 µM |
| O=C(C(=O)N1CCN(C(=O)c2ccccc2)CC1)c1c[nH]c2cccc(F)c12 | MT-2 | - | LAI | 0.00293 µM |
| CC(=O)Oc1ccc(/C=C/C(=O)Nc2ccc(S(=O)(=O)Nc3cccc(Cl)c3F)cc2)cc1OC(C)=O | MT-4 | - | - | >25 µM |
| C=C(C)C(=O)NC(=O)N[C@@H]1OC(CO[Si](C)(C)C(C)(C)C)C2(OS(=O)(=O)C=C2N)C1O[Si](C)(C)C(C)(C)C | CEM + CEM/0 | - | - | 0.6 µM |
| CCN1C[C@H](C)N2C(=C(O)C3C(=O)N4Cc5ccc(F)cc5C(=O)NCCCN=C(N4)C32)C1=O | MT-4 | - | LAII(IIIB) | 1210 µM |
| COCc1nc(Nc2ccc(C#N)cc2)nc(Nc2c(C)cc(/C=C/C#N)cc2C)c1C(=O)NCCN(C)C | MT4 CMV-EGFP | - | MDR | 2.04 µM |
| CCN1C[C@H](C)N2C(=C(O)C3C(=O)N4Cc5ccc(F)cc5OCCCC[C@H](C)S(=O)(=O)N(C)C(=N4)C32)C1=O | MT-4 | - | LAII(IIIB) | 2.24 µM |
| O=c1[nH]c(=O)n([C@H]2C[C@H](F)[C@@H](CO)O2)cc1Cl | CEM + CEM/O | - | IIIB | 0.5 µM |
| O=c1[nH]c(=O)n([C@@H]2O[C@@H](CO)CC2(F)F)cc1F | PBMC | - | LAV | >100 µM |
| COCc1nc(Nc2ccc(C#N)cc2)nc(Nc2c(C)cc(/C=C/C#N)cc2C)c1C(=O)NCc1ccccn1 | MT4 CMV-EGFP | - | L1001+K103N | 0.0525 µM |
| CC(=O)N[C@@H](Cc1ccccc1)C(=O)N[C@H](C(=O)N[C@@H](CC(C)C)[C@@H](O)CC(=O)N[C@@H](CC(C)C)C(=O)N[C@@H](Cc1ccccc1)C(N)=O)C(C)C | CEM | - | - | 3.37 µM |
| CCC(CC)Cn1c(-c2ccccc2F)nc2c(OC)cccc21 | MT-4 | - | IIIB | 0.0024 µg/mL |
| Nc1nc2c(ncn2[C@@H]2C[C@H](CO)[C@H]2CO)c(=O)[nH]1 | - | - | - | 0.03 µg/mL |
| Cc1cn(C[C@H]2C[C@H]2[C@H](O)CO)c(=O)[nH]c1=O | PBMC | - | LAV | 56.1 µM |
| O=c1[nH]c(=O)n([C@@H]2O[C@@H](CO)CC2(F)F)cc1I | PBMC | - | LAV | >100 µM |
| O=c1[nH]c(=O)n([C@@H]2C[C@@H](F)[C@H](CO)O2)cc1Cl | CEM + CEM/O | - | IIIB | >250 µM |
| COc1cccc2c1nc(-c1ccccc1F)n2Cc1cccc(C#N)c1 | MT-4 | - | IIIB | 0.0081 µg/mL |
| C=C(C)[C@@H]1CC[C@]2(CNCC(OC)OC)CC[C@]3(C)[C@H](CC[C@@H]4[C@@]5(C)CC=C(c6ccc(C(=O)O)cc6)C(C)(C)[C@@H]5CC[C@]43C)[C@@H]12 | MT-2 | - | NL4-3 | <0.1 µM |
| Cc1cn([C@H]2OC(C)(CO)[C@H](O)[C@@H]2O)c(=O)[nH]c1=O | MT-4 | - | IIIB | >100 µM |
| CCN1C[C@H](C)N2C(=C(O)C3C(=O)N4Cc5ccc(F)cc5C(=O)NCCCCCCN(C)C(=N4)C32)C1=O | MT-4 | - | LAII(IIIB) | 152 µM |
| C=C(C)[C@@H]1CC[C@]2(CNCC(=O)NS(=O)(=O)C3CC3)CC[C@]3(C)[C@H](CC[C@@H]4[C@@]5(C)CC=C(c6ccc(C(=O)O)cc6)C(C)(C)[C@@H]5CC[C@]43C)[C@@H]12 | MT-2 | - | NL4-3 | <0.1 µM |
| Cc1cn([C@H]2CC[C@@](F)(CO)C2)c(=O)[nH]c1=O | PBMC | - | - | >100 µM |
| Cc1nc2ccccc2c(-c2ccc(Cl)cc2)c1[C@H](OC(C)(C)C)C(=O)O | MT-2 | - | - | 0.104 µM |
| CSCO[C@H]1C[C@H](n2cc(C)c(=O)[nH]c2=O)O[C@@H]1CO | MT-4 | - | - | >500 µM |
| CCCO[C@H]1C(=O)Nc2ccc(Cl)cc2[C@@]1(C#CC1CC1)C(F)(F)F | MT-2 | - | RF | <0.062 µM |
| Nc1ncnc2c1ncn2C/C=C\COCP(=O)(O)O | PBL | - | - | 9 µM |
| Nc1nc2c(ncn2COCCO/N=C/c2ccccc2)c(=O)[nH]1 | C8166 | - | IIIB | >50 µM |
| CC(=O)Oc1ccc(/C=C/C(=O)Nc2ccc(S(=O)(=O)Nc3ccc(Cl)c(Cl)c3)cc2)cc1OC(C)=O | MT-4 | - | - | >20 µM |
| Nc1c2ccccc2nc2ccccc12 | CEM | - | - | >50 µM |
| COc1cccc2c1nc(-c1ccccc1F)n2CC=C(C)C | MT-4 | - | IIIB | 0.0026 µg/mL |
| C=C(C)C(=O)NC(=O)NC1OC(CO[Si](C)(C)C(C)(C)C)C2(OS(=O)(=O)C=C2N)C1O[Si](C)(C)C(C)(C)C | MT-4 | - | - | 1.35 µM |
| COCc1nc(Nc2ccc(C#N)cc2)nc(Nc2c(C)cc(/C=C/C#N)cc2C)c1C(=O)N1CCN(CCO)CC1 | MT4 CMV-EGFP | - | K103N+Y101C | 0.49 µM |
| O=c1ccn([C@@H]2O[C@@H](CO)CC2(F)F)c(=O)[nH]1 | PBMC | - | LAV | >100 µM |
| Nc1nc2c(ncn2[C@H]2C=C[C@@H](CO)C2)c(=O)[nH]1 | CEM | - | - | 2 µM |